The results in this text go back to patent US7741348B2, “Bisheterocycle tandem compounds useful as antiviral agents, the uses thereof and the compositions comprising such compounds” (Shanghai Institute of Materia Medica, Chinese Academy of …, priority 2005, dated 2010).

What all share (type): cell-based
Series [1] relates to hepatitis B virus (HBV). The experiment in a line: HBV-DNA replication in HepG2.2.15 culture supernatant (fluorescent quantification PCR). As to conditions: selection coefficient, in brackets after the IC50; ratio CC50 / IC50. The text has this: (§1) Hepatitis B virus (HBV) transgenic human hepatoma carcinoma cell, HepG2.2.15 cell line, can secrete hepatitis B virus particles (containing antigen and DNA) into supernatant when being cultured.
(§2) Under action of antiviral drugs, the contents of HBsAg, HBeAg and viral DNA secreted from cells into the supernatant were detected and are compared with the contents of control groups without drugs, so that the antiviral activity of the compounds of the present invention can be measured as well as the cytotoxic effect of compounds of the present invention. The value concentration of the compounds of the present invention which caused 50% of cells dead and was measured with MTT method was CC50; and the value concentration of the compounds of the present invention which inhibited the secretion of HBsAg and HBeAg detected by ELISA method and inhibited 50% of viral DNA replication detected by fluorescent quantification PCR method was IC50.
(§3) HepG2.2.15 cells were inoculated on a 96-well plate, and the compounds of the present invention were added next day. The medium and the compound solutions of the same concentration were renewed periodically. The culture supernatants were collected on the eighth day to be detected. MTT was added to the cells on the 96-well plate, and MTT dissolving liquid was added after 4 hours to be reacted overnight. OD570 was measured next day on microplate reader. And the cytotoxicity of the compounds of the present invention to the HepG2.2.15 cells, the effect of the compounds of the present invention on the growth of the cells, and the concentration of the compound of the present invention (CC50) causing 50% of the cells dead were estimated according to the OD values.
A suitable amount of culture supernatant was added into a same volume of virus extract solution, and was boiled after mixed uniformly, then centrifuged at 10000 rpm for 5 min under room temperature. A suitable amount of supernatant was collected for PCR amplification. Five HBV-DNA standard samples were used to set a standard curve. According to the obtained viral DNA replication value, the inhibition rates of HBV-DNA replication of the compound of the present invention at different concentrations were calculated, and then the half inhibition rates of the compounds were calculated to obtain IC50. For the samples that can not be calculated for IC50 value, they can be represented by ICX and given the corresponding concentration values.

The test system of series [2] is hepatitis B virus (HBV). In words: HBeAg secretion in HepG2.2.15 culture supernatant (ELISA). As to conditions: selection coefficient, in brackets after the IC50; ratio CC50 / IC50.
From the text: as §1, §2, §3
(§4) HBsAg and HBeAg were detected with assaying kits (purchased from Sino-American biotechnological company). Samples were added to the coated strip plate, and the same amount of enzyme labeled conjugate was added, after reacting under 37° C. for 1 hour, the plate was washed 5 times. Colorant solutions A and B were added, and the reaction was stopped after 15 minutes, and OD450/630 was measured. The half inhibition rate IC50 of the sample for the HBV antigen was calculated according to the OD values.
(In general: ELISA stands for enzyme-linked immunosorbent assay.)

For series [3], the system named is hepatitis B virus (HBV). The experiment in a line: HBsAg secretion in HepG2.2.15 culture supernatant (ELISA). As to conditions: selection coefficient, in brackets after the IC50; ratio CC50 / IC50.
From the text: as §1, §2, §3, §4

For series [4], the system named is herpes virus II (HSV-II). In words: Anti herpes virus II activity, cytopathic effect in Vero cells. As to conditions: SI = TC50/IC50. From the text:
3. Screening of the compounds for the anti-herpes virus I and II activity: Vero (African green monkey kidney) cells were used as virus host to test the inhibition effect of the compounds of the present invention on the cytopathic effect of the Vero cells caused by Herpes virus I and II.
(Damage to the host cells serves as the signal in cytopathic effect assays.)

As to `CC(C)Cc1cnc(-c2nccs2)o1` [Compound C208], the “DNA replication SI” value in series [1] is listed as greater than 2.8. Still for that read-out and setting: the figure for `c1ccc(-c2cnc(-c3cccs3)[nH]2)cc1` [Compound C226] is 23.1; for `c1ccc(-c2cnc(-c3cccs3)o2)cc1` [Compound C227] it is greater than 71; for `c1ccc(-c2cnc(-c3cccs3)s2)cc1` [Compound C243] it is 206.1.

As for `CCOC(=O)c1nc(-c2cccs2)[nH]c1C1CC1` [Compound C262], the “DNA replication SI” value in series [1] was determined as 8. Still for that read-out and setting: the same measure for `CCOC(=O)c1nc(-c2nccs2)[nH]c1C1CC1` [Compound C263-1]: greater than 27; for `CCOC(=O)c1nc(-c2nccs2)[nH]c1C1CCC1` [Compound C277]: greater than 32; for `CCCCc1oc(-c2cccs2)nc1C(=O)OCC` [Compound C279-2]: 1.38. Consider `CCOC(=O)c1nc(-c2nccs2)[nH]c1C1CCCC1` [Compound C291], for which the “DNA replication SI” value in series [1] is reported as greater than 18.2. The same measure, in the same setting: the same measure for `CCOC(=O)c1nc(-c2ccc(C)s2)[nH]c1CC(C)C` [Compound C292]: 25.9; for `CCOC(=O)c1nc(-c2ccc(C)s2)oc1CC(C)C` [Compound C293]: 0.6; for `CCCCc1sc(-c2cccs2)nc1C(=O)OCC` [Compound C295-1]: 4.3. For the compound `CCOC(=O)c1nc(-c2cscn2)sc1CC(C)C` [Compound C296-3], the “DNA replication SI” value in series [1] was 826. On to `CCOC(=O)c1nc(-c2cccs2)[nH]c1C1CCCCC1` [Compound C304], for which the “DNA replication SI” value in series [1] is listed as greater than 22.2.

With `CCOC(=O)c1nc(-c2cccs2)oc1C1CCCCC1` [Compound C305-1], in series [1], the “DNA replication SI” value was greater than 38. As for `CCOC(=O)c1nc(-c2nccs2)[nH]c1C1CCCCC1` [Compound C305-2], the “DNA replication SI” value in series [1] is greater than 24.4.

Consider `CCOC(=O)c1nc(-c2nccs2)oc1C1CCCCC1` [Compound C306], for which the “DNA replication SI” value in series [1] is greater than 125. Same read-out and setting: the same measure for `CCOC(=O)c1nc(-c2ccc(CC)s2)oc1CC(C)C` [Compound C307]: 3.6. `CCOC(=O)c1nc(-c2ncc(C)s2)sc1CC(C)C` [Compound C310]: in series [1], the “DNA replication SI” value is reported as greater than 571. Consider `CCOC(=O)c1nc(-c2cc3ccccc3[nH]2)[nH]c1CC(C)C` [Compound C311-2], for which the “DNA replication SI” value in series [1] worked out at 50.

As to `CCCCc1oc(-c2ccc(CCC)s2)nc1C(=O)OCC` [Compound C321-1], the “DNA replication SI” value in series [1] worked out at 13.65. The same measure, in the same setting: the figure for `CCOC(=O)c1nc(-c2cccs2)sc1C1CCCCC1` [Compound C321-2] is greater than 16.9; for `CCOC(=O)c1nc(-c2nc(CC)cs2)sc1CC(C)C` [Compound C324-2] it is greater than 571. With `CCOC(=O)c1nc(-c2cc3ccccc3s2)[nH]c1CC(C)C` [Compound C328], in series [1], the “DNA replication SI” value was greater than 39.14. Regarding `CCOC(=O)c1nc(-c2cc3ccccc3s2)sc1CC(C)C` [Compound C345], the “DNA replication SI” value in series [1] is greater than 86.7. The same measure, in the same setting: the same measure for `CCOc1cnc(-c2oc(-c3cccs3)nc2C(=O)c2ccccc2)o1` [Compound C352]: greater than 4; for `CCOC(=O)c1nc(-c2nc3cc(OC)ccc3s2)sc1CC(C)C` [Compound C376]: 6. For `Clc1nc(-c2cccs2)[nH]c1-c1ccccc1` [Wang260], the “HBeAg secreation SI” value in series [2] worked out at 3.1. The “HBsAg secreation SI” value in series [3] stood at 3.8. In the case of `Clc1nc(-c2nccs2)[nH]c1-c1ccccc1` [Wang261], in series [2], the “HBeAg secreation SI” value is 3.3. The “HBsAg secreation SI” value in series [3] was 1.3. The like results for `CCCc1[nH]c(-c2cccs2)nc1C(=O)OCC` [Wang264] were, in that order, 1.3 and 3.

With `CCCc1[nH]c(-c2nccs2)nc1C(=O)OCC` [Wang265], the “HBeAg secreation SI” value in series [2] is 14.1. In addition, the “HBsAg secreation SI” value in series [3] worked out at 4.2. Turning to `CC(C)Cc1sc(-c2nccs2)nc1C(=O)O` [Wang268-1], the “HBeAg secreation SI” value in series [2] is listed as 4.3. The “DNA replication SI” value in series [1] stood at 2.9. In series [3], the “HBsAg secreation SI” value came out at 4.9.

For `CCCCc1sc(-c2nccs2)nc1C(=O)O` [Wang268], the “HBeAg secreation SI” value in series [2] was 2. Also, the “HBsAg secreation SI” value in series [3] was 6.9.

In the case of `CCOC(=O)c1nc(-c2cccs2)[nH]c1CC(C)C` [Wang278-1], in series [2], the “HBeAg secreation SI” value is given as 4.8. In addition, in series [3], the “HBsAg secreation SI” value came out at 2.6.

Consider `CCCCc1[nH]c(-c2cccs2)nc1C(=O)OCC` [Wang278], for which the “HBeAg secreation SI” value in series [2] is 6.4. Besides, the “DNA replication SI” value in series [1] is reported as 32.1. The “HBsAg secreation SI” value in series [3] is 2.27. As for `CCOC(=O)c1nc(-c2nccs2)[nH]c1CC(C)C` [Wang279-1], the “HBeAg secreation SI” value in series [2] amounted to 7.7. The “HBsAg secreation SI” value in series [3] is 5.5. With `COC(=O)c1nc(-c2nccs2)sc1CC(C)C` [Wang282-1], the “HBeAg secreation SI” value in series [2] is reported as greater than 15.4. Also, the “DNA replication SI” value in series [1] is recorded as greater than 138.8. For the same compound, the “HBsAg secreation SI” value in series [3] was greater than 4.93.

For `CCCCc1sc(-c2nccs2)nc1C(=O)OC` [Wang282], in series [2], the “HBeAg secreation SI” value is on record as 6.9. For the same compound, the “DNA replication SI” value in series [1] is reported as 20.5. Also, the “HBsAg secreation SI” value in series [3] is reported as 6.75. As to `CCOC(=O)c1nc(-c2cccs2)[nH]c1-c1ccccc1` [Wang298], the “HBeAg secreation SI” value in series [2] came out at 2.7. Further, the “HBsAg secreation SI” value in series [3] turned out to be 4. For the compound `O=C(O)c1nc(-c2nccs2)sc1Cc1ccccc1` [Wang302], the “HBeAg secreation SI” value in series [2] is on record as 2.3. The “DNA replication SI” value in series [1] is listed as 3.1.

Regarding `COC(=O)c1nc(-c2nccs2)sc1Cc1ccccc1` [Wang316], the “HBeAg secreation SI” value in series [2] was 2.5. Besides, the “HBsAg secreation SI” value in series [3] came to 5.2.

With `COC(=O)c1nc(-c2ncco2)sc1-c1ccc(F)cc1Cl` [Wang338], the “HBeAg secreation SI” value in series [2] amounted to 9. Moreover, the “DNA replication SI” value in series [1] worked out at 32.8. Besides, the “HBsAg secreation SI” value in series [3] turned out to be 2.58. As for `COC(=O)c1nc(-c2csc([C@@H](NC(=O)c3cccs3)C(C)C)n2)oc1C` [Wang405.49], the “HBeAg secreation SI” value in series [2] was 3.32. Moreover, in series [1], the “DNA replication SI” value is 2.02. In addition, the “HBsAg secreation SI” value in series [3] is 2.43. `COC(=O)c1nc(-c2csc([C@@H](NC(=O)c3ccccc3F)C(C)C)n2)oc1C` [Wang417.46-J]: in series [3], the “HBsAg secreation SI” value stood at 5.3.

On to `COC(=O)c1nc(-c2csc([C@@H](NC(=O)c3cccc(F)c3)C(C)C)n2)oc1C` [Wang417.46-P], for which, in series [4], the “Anti herpes virus II HSV-II (SI)” value is 1.86. With `COC(=O)c1coc([C@H](C)NC(=O)c2nc(-c3csc([C@@H](NC(=O)C4CCCC4)C(C)C)n3)oc2C)n1` [Wang529.61-1], the “HBeAg secreation SI” value in series [2] worked out at 2.76. In series [3], the “HBsAg secreation SI” value is reported as 2.21.

For `COC(=O)c1nc(-c2csc([C@@H](NC(=O)COCc3ccccc3)C(C)C)n2)oc1C` [Wang 443.52], the “Anti herpes virus II HSV-II (SI)” value in series [4] came to 1.86. The same measure, in the same setting: the figure for `COC(=O)c1coc([C@H](C)NC(=O)c2nc(-c3csc([C@@H](NC(=O)C4CC4)C(C)C)n3)oc2C)n1` [Wang 501.56-1] is 2.41; for `COC(=O)c1nc(-c2csc([C@@H](NC(=O)c3csc([C@@H](NC(=O)OC(C)(C)C)C(C)C)n3)C(C)C)n2)oc1C` [Wang 577.72] it is 1.81.
